Laboratory results: PubChem BioAssay AID624099 (ICCB-Longwood, 2012)

- Test: 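Human genes that papillomavirus E2 requires to repress the HPV18 LCR promoter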 (primary screen)
- Cell system: human C33A cervical carcinoma cells (HPV-negative) stably expressing BPV1 E2 and an HPV18 LCR luciferase reporter
- Reagent: siRNA pool against human genes, 40 nM
- Duration: 72 h
- Detection: 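Per-well luciferase luminescence, z-scored on each plate against the plate mean and SD with control wells left out, then averaged across three replicate plates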
- Reading the numbers: mean z-score and z-score: higher = stronger reporter signal, weaker E2 silencing
- Hit rule: 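Hit if mean z-score reaches 2 and two or more of three replicate z-scores also reach 2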
The whole screen tested about 21,000 reagents; this is an unselected part. Of all reagents, 497 (2.4%) got an active call. 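Higher z means weaker E2 silencing; only reporter increases were scored, and knock-downs that hurt cell survival may mask genuine repressor factors.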

| gene | PubChem SID | mean z-score | z-score, replicate A | z-score, replicate B | z-score, replicate C | call |
| --- | --- | --- | --- | --- | --- | --- |
| LGMN | SID134311351 | 1.15 | 1.22 | 1.04 | 1.19 | inactive |
| PRPS2 | SID56478909 | -0.74 | -0.91 | -0.52 | -0.8 | inactive |
| OTUD5 | SID134318027 | 0.3 | 0.39 | 0.33 | 0.17 | inactive |
| PSG1 | SID134320432 | 0.43 | 0.33 | 0.38 | 0.6 | inactive |
| TIGD4 | SID134321377 | 0.56 | 0.19 | 0.84 | 0.64 | inactive |
| POLR1E | SID134318278 | 0.57 | 0.75 | 0.55 | 0.42 | inactive |
| KLHDC7A | SID134320584 | -0.15 | -0.07 | -0.17 | -0.22 | inactive |
| CPLX4 | SID134322597 | -0.1 | -0.31 | 0.15 | -0.15 | inactive |
| FOXG1 | SID134322933 | -0.36 | -0.22 | -0.51 | -0.33 | inactive |
| FOXG1 | SID134329752 | 1.44 | 1.38 | 1.44 | 1.51 | inactive |
| RBM26 | SID134322900 | -0.9 | -1 | -1.09 | -0.6 | inactive |
| HDAC9 | SID134310824 | -0.14 | 0.11 | -0.25 | -0.29 | inactive |
| ODC1 | SID134311943 | 0.18 | 0.05 | 0.1 | 0.38 | inactive |
| METTL4 | SID134318400 | -0.26 | -0.36 | -0.12 | -0.29 | inactive |
| ZNRD2 | SID134323858 | 0.35 | 0.53 | 0.24 | 0.29 | inactive |
| LOC387702 (retired record) | SID134328154 | 0.32 | 0.77 | 0.16 | 0.04 | inactive |
| DCP1A | SID134324843 | -0.71 | -0.7 | -0.62 | -0.83 | inactive |
| TMEM130 | SID134320397 | -0.44 | -0.85 | -0.04 | -0.43 | inactive |
| ECI2 | SID134314515 | 0.64 | 0.71 | 0.59 | 0.61 | inactive |

Next part; the last 7 above are carried over.
| gene | PubChem SID | mean z-score | z-score, replicate A | z-score, replicate B | z-score, replicate C | call |
| --- | --- | --- | --- | --- | --- | --- |
| ODC1 | SID134311943 | 0.18 | 0.05 | 0.1 | 0.38 | inactive |
| METTL4 | SID134318400 | -0.26 | -0.36 | -0.12 | -0.29 | inactive |
| ZNRD2 | SID134323858 | 0.35 | 0.53 | 0.24 | 0.29 | inactive |
| LOC387702 (retired record) | SID134328154 | 0.32 | 0.77 | 0.16 | 0.04 | inactive |
| DCP1A | SID134324843 | -0.71 | -0.7 | -0.62 | -0.83 | inactive |
| TMEM130 | SID134320397 | -0.44 | -0.85 | -0.04 | -0.43 | inactive |
| ECI2 | SID134314515 | 0.64 | 0.71 | 0.59 | 0.61 | inactive |
| FOS | SID134309823 | 0.13 | 0.98 | -0.35 | -0.24 | inactive |
| MGST2 | SID134314211 | 1.79 | 1.76 | 1.94 | 1.68 | inactive |
| ZC3HAV1L | SID134319298 | -0.37 | -0.33 | -0.38 | -0.39 | inactive |
| COL14A1 | SID134326406 | -0.49 | -0.65 | -0.39 | -0.43 | inactive |
| TMEM160 | SID134324476 | 1.58 | 1.05 | 1.54 | 2.17 | inactive |
| BAD | SID134310120 | -0.25 | -0.65 | -0.15 | 0.05 | inactive |
| MEA1 | SID134324060 | -0.1 | -0.21 | -0.01 | -0.09 | inactive |
| LGR5 | SID134311019 | 0.06 | -0.19 | 0.48 | -0.11 | inactive |
| CYP26C1 | SID134323160 | -0.71 | -0.79 | -0.64 | -0.71 | inactive |
| ZNF14 | SID134324446 | -0.08 | -0.11 | -0.1 | -0.02 | inactive |
| CREB3L1 | SID134313446 | -2.1 | -2.01 | -1.6 | -2.68 | inactive |
| ACADSB | SID134310111 | 0.27 | 0.66 | 0.15 | 0.02 | inactive |
| MOS | SID56478732 | 1.47 | 1.48 | 1.22 | 1.72 | inactive |
| RRAD | SID134312739 | -1.6 | -1.53 | -1.56 | -1.71 | inactive |
| FNBP4 | SID134318217 | -0.65 | -0.73 | -0.62 | -0.62 | inactive |
| NPAS3 | SID134313367 | -0.28 | -0.59 | -0.37 | 0.13 | inactive |
| COX17 | SID134316385 | 0.48 | 0.47 | 0.38 | 0.6 | inactive |
| CCDC87 | SID134324642 | -1.68 | -1.7 | -1.78 | -1.57 | inactive |
| LPCAT2 | SID134314860 | -0.21 | 0.01 | -0.29 | -0.36 | inactive |
| NKX2-8 | SID134313124 | 0 | 0.19 | -0.19 | -0.02 | inactive |
| TRIM67 | SID134329754 | -0.83 | -0.87 | -1.15 | -0.46 | inactive |
| RGS5 | SID134313259 | -0.33 | -0.13 | -0.02 | -0.84 | inactive |
| FAM171A2 | SID134328788 | 2.32 | 2.48 | 2.34 | 2.12 | active |
| ITPRIP | SID134319158 | 0.21 | 0.41 | 0.01 | 0.23 | inactive |
| LRRC49 | SID134324318 | -1.19 | -1.38 | -1.22 | -0.96 | inactive |
| FABP6 | SID134313700 | 1.93 | 2.11 | 1.95 | 1.72 | inactive |
| TUBA1B | SID134323805 | 0.48 | 0.34 | 0.43 | 0.68 | inactive |
| CD24 | SID134324340 | 0.42 | 0.59 | 0.22 | 0.45 | inactive |
| LOC400987 (retired record) | SID134327210 | 0.61 | 0.43 | 0.6 | 0.8 | inactive |
| TBC1D31 | SID134319639 | 1.05 | 1.34 | 0.66 | 1.16 | inactive |
| NCOR2 | SID134323881 | -0.14 | -0.3 | 0 | -0.11 | inactive |
| AARS2 | SID134326273 | 0.21 | 0.5 | 0.08 | 0.06 | inactive |
| NEMP1 | SID134326698 | -0.76 | -0.9 | -1.06 | -0.33 | inactive |
| ZNF700 | SID134328978 | 0.66 | 0.34 | 0.5 | 1.16 | inactive |
| VSIG4 | SID134317040 | 0.09 | 0.14 | 0.33 | -0.21 | inactive |
| SACK1H | SID134326829 | 0.72 | 0.78 | 0.59 | 0.79 | inactive |
| CGAS | SID134319640 | -0.45 | -0.09 | -0.63 | -0.62 | inactive |
| AGK | SID57288968 | -1.18 | -0.47 | -1.53 | -1.54 | inactive |
